Among the data in patent US20170253607A1 are IC50, rat_fu and rat_CLt values, retold here.

One data set has as its target HIV-1 PR (Human immunodeficiency virus type 1 group M subtype B, UniProt P04585). As to the kind of experiment: HIV-protease inhibitory activity assay (FRET peptide substrate). It counts as biochemical. The conditions noted are these: Test Example 1.
A short description of data set [1]: Protein binding test (equilibrium dialysis, unbound ratio fu in serum). In kind it is in vitro ADME. The following applies: rat serum, equilibrium dialysis 24 hours, 37° C., 2 μg/mL.
Data set [2] is described as follows: Evaluation of total body clearance (CLtot), intravenous administration. It counts as in vivo, Sprague-Dawley (SD). The conditions noted are these: rat (SD), intravenous administration 0.5-10 mg/kg; CLtot = dose/AUC.

pIC50: −log10 of the molar value.

For `COc1ccc(S(=O)(=O)N(CC(C)C)C[C@@H](O)[C@H](Cc2ccc(NCc3ccc4ccccc4c3-c3sc4c(c3C(=O)O)CC(C)(C)CC4)cc2)NC(=O)O[C@H]2CO[C@@]3(C)OCC[C@@H]23)cc1`, at HIV-1 PR, the pIC50 is 8.37. The rat_fu in data set [1] is below 0.1%. The molecule also returned a rat_CLt in data set [2] of 0.113 mL/min/kg.
As to `COc1ccc(S(=O)(=O)N(CC(C)C)C[C@@H](O)[C@H](Cc2ccccc2)NC(=O)O[C@H]2CO[C@@]3(CN(Cc4sc5c(c4C(=O)O)CC(C)(C)CC5)C(C)=O)OCC[C@@H]23)cc1`, on HIV-1 PR, the pIC50 was 8.99. For the same molecule, the rat_fu in data set [1] is on record as below 0.1%. This molecule also displayed a rat_CLt in data set [2] of 5.37 mL/min/kg.
Turning to `COc1ccc(S(=O)(=O)N(CC(C)C)C[C@@H](O)[C@H](Cc2ccc(N(C)S(=O)(=O)c3ccccc3-c3sc4c(c3C(=O)O)CC(C)(C)CC4)cc2)NC(=O)O[C@H]2CO[C@@]3(C)OCC[C@@H]23)cc1`, the pIC50 against HIV-1 PR is 8.51. The rat_fu in data set [1] is listed as below 0.1%. This molecule also returned a rat_CLt in data set [2] of 4.97 mL/min/kg.
With `COc1ccc(S(=O)(=O)N(CC(C)C)C[C@@H](O)[C@H](Cc2ccc(O[C@H]3CCN(c4ccccc4-c4sc5c(c4C(=O)O)CC(C)(C)CC5)C3)cc2)NC(=O)O[C@H]2CO[C@@]3(C)OCC[C@@H]23)cc1`, at HIV-1 PR, the negative logarithm of the IC50 (pIC50) was 8.67. Moreover, in data set [1], the rat_fu is given as below 0.1%. For the same molecule, the rat_CLt in data set [2] was found to be 0.985 mL/min/kg.
